Where “and” joins values, the source holds several entries; their conditions need not be identical. Equal entries are not always repeated. Marks after values point to notes of the source that are not given here.
Legend:
Assay type in all cases: cell-based
[1] = tested on: Influenza virus Malaysia B strain produced on MDCK cells
[2] = tested on: Influenza virus Wisconsin A strain produced on MDCK cells
[3] = tested on: Murine Leukaemia Virus (MuLV)
Hepatitis A Virus (HAV) = tested on: Hepatitis A Virus (HAV)
[4] = tested on: Porcine Pseudorabies Virus (PRV)
[5] = tested on: Influenza virus produced on MDCK cells
[6] = tested on: H5N1 influenza virus produced on EB66 cells

Row | Molecule | log TCID50/ml [1] | log TCID50/ml [2] | LVR [3] | LVR (Hepatitis A Virus (HAV)) [log] | log TCID50/ml (Hepatitis A Virus (HAV)) [log TCID50/ml] | LVR [4] [log] | log TCID50/ml [4] [log TCID50/ml] | viral titration reduction [5] | LVR [6] | log TCID50/ml [6]
1 | O=C1CCO1 [BPL, beta-propiolactone] | ≦1.8 log TCID50/ml | ≦0.8 log TCID50/ml | 2.7 log and 2.8 log and 1.6 log | 3.8 | 1.5 | 3.4 | 2.6 | about 8 logs |  | 
2 | Triton X-100 |  |  |  |  |  |  |  |  | 3.8*** log | 5.2 log TCID50/ml and 5.0 log TCID50/ml

— patent US20130039943A1, “NOVEL METHOD” (priority 2010, published 2013)
